Tested on: Psoroptes cuniculi
Assay: in vitro immersion assay on the mite Psoroptes cuniculi
Conditions: adult males, adult females, female nymphs; first 24 hour exposure
Description: A series of in vitro assays were conducted to examine the effects of the compound trans-cinnamic acid ethyl ester on the mite Psoroptes cuniculi. This mite infests rabbits and is very similar to the mite Psoroptes ovis which infests sheep and causes sheep scab.
The mites were taken from the ears of infested rabbits and exposed for 24 hours to the active compound at concentrations of 10, 1 or 0.1 % (V/V). The concentrations were obtained by serial dilution of the compound in 0.05% sodium dodecyl sulphate (SDS).
This is illustrated in Figure 2 of the accompanying drawings.
The LC95 was 6.29% (95% confidence interval 4.98-8.88).
Line (1) represents adult males, line (2) adult females and (3) female nymphs.
Thus, trans-cinnamic acid ethyl ester gives greater than 50% levels of mortality within 24 hours, for all life cycle stages of P. cuniculi after short contact times (1 min) at concentrations of 2.2% (V/V). At one minute contact time, concentrations of greater than 6% (V/V) are required to bring about mortality of greater than 95%. Recent theoretical analysis using simulation modelling (Wall, unpublished) has shown that sustained mortality of greater than 50% per day is required to suppress a growing population of P. ovis.

CCOC(=O)/C=C/c1ccccc1 [trans-cinnamic acid ethyl ester]
mortality of the various life cycle stages: not significantly different

Reference: EP1206258B1, “COMPOSITIONS CONTAINING ESTERS FOR TREATING PARASITIC INFESTATIONS OF ORGANISMS” (priority 1999, dated 2001)
